Measured values from several laboratories, pooled; numbers as filed in NIAID ChemDB.

Common to all: whole-cell or culture tests; organism: Mycobacterium bovis BCG

A number after MIC or MFC names an inhibition level or a share of isolates. a–b is a range or a potency band. Blank or dashed fields: not listed here. Rows are shuffled and stem from different studies.

structure	setting	strain	measure	method	result
C#CC(=O)OC	48 h	1173P2	MIC	resazurin	7.75 µg/mL
C/C(=N\Nc1ccc2ccccc2n1)c1ccccc1O	-	Pasteur	MIC	-	>100 µM
C#CCCO	24 h	1173P2	MIC	resazurin	125 µg/mL
C=CC1CN2CCC1CC2C[C@H](O)c1ccnc2ccc(OC)cc12	-	-	MIC95	agar	>200 µg/mL
CC(=O)OC(C)=O	24 h	1173P2	MIC	resazurin	250 µg/mL
COC(=O)Cc1ccc2c(c1)[nH]c1ccc(Cl)cc12	-	-	MIC99	resazurin / visual reading / absorbance	15.6 µg/mL
C(=N\Nc1nncs1)/c1c[nH]c2ccccc12	24 h	1173P2	MIC100	broth dilution	7.81 µg/mL
CC(C)=CCC/C(C)=C/Cn1cc(CNC2CCCCCC2)c2cc(F)ccc21	-	-	MIC90	turbidity	>50 µM
CC[C@@H](CO)NCCN[C@@H](CC)CO	24 h	1173P2	MIC100	broth dilution	0.75 µg/mL
CC(C)(C)c1ccc(CCOc2ncnc3ccccc23)cc1	-	-	MIC50	luminescence	>20 µM
CC(=O)Nc1ccc(/C=N/NC(N)=S)cc1	-	Pasteur	MIC	resazurin	10 µg/mL
C[C@H]1COC2(CCN(c3nc(=O)c4cc(C(F)(F)F)cc(C(=O)O)c4s3)CC2)O1	-	Pasteur	MIC99	resazurin	0.001 µg/mL
C#CCCC	24 h	1173P2	MIC	resazurin	3.87 µg/mL
FC(F)(F)c1ccc(Oc2ccc(Nc3ncnc4cc[nH]c34)cc2)cc1	-	-	MIC50	luminescence	>20 µM
C#CC(C)O	48 h	1173P2	MIC	resazurin	125 µg/mL
CSC(=S)N/N=C(\C)c1ccc(OCc2ccc(F)cc2F)cc1	-	-	MIC	resazurin / absorbance	>100 µM
CC(C(=O)O)c1ccc2c(c1)[nH]c1ccc(C3CCCCC3)cc12	-	-	MIC99	resazurin / visual reading / absorbance	250 µg/mL
NNC(=S)N/N=C/c1cn(Cc2ccc(Cl)cc2)c2ccccc12	24 h	1173P2	MIC100	broth dilution	>500 µg/mL
C#CC(O)CCCCC	24 h	1173P2	MIC	resazurin	125 µg/mL
COC(=O)Cc1ccc2[nH]c3ccc(C(F)(F)F)cc3c2c1	-	-	MIC99	resazurin / visual reading / absorbance	7.8 µg/mL
CC(C)CCOc1ccc(NC(=S)Nc2ccc(OCCC(C)C)cc2)cc1	-	Pasteur	MIC	resazurin	5–10 µg/mL
O=C(O)Cc1cccc2[nH]c3ccc(Cl)cc3c12	-	-	MIC99	resazurin / visual reading / absorbance	250 µg/mL
COc1ccc(-c2c(C)c(C(=O)O)nc(-c3ccc4c(O)c(OC)c5c(c4n3)=NC(C)(C)N=5)c2N)c(O)c1OC	-	Pasteur	MIC	-	50 µM
O=C(O)c1cc(C(F)(F)F)cc2c(=O)nc(N3CCN(CC4CCCCC4)CC3)sc12	-	BN2	MIC99	resazurin	>100 µg/mL
S=C(S)N1CCCC1	-	Pasteur	MIC	-	1.56 µM
CC[C@@H](C(=O)[C@@H](C)[C@@H](O)[C@H](C)[C@@H]1O[C@@H]([C@@H](CC)C(=O)O)CC[C@@H]1C)[C@H]1O[C@@]2(C=C[C@@H](O)[C@@]3(CC[C@@](C)([C@H]4CC[C@](O)(CC)[C@H](C)O4)O3)O2)[C@H](C)C[C@@H]1C	-	1173P2	MIC	resazurin	6.25 µg/mL
NNC(=S)N/N=C/c1cn(Cc2ccc(Br)cc2)c2ccccc12	24 h	1173P2	MIC100	broth dilution	>500 µg/mL
CN(/N=C/c1ccccc1O)c1ccc2ccccc2n1	-	Pasteur	MIC	-	>100 µM
CO[C@@H]1C[C@@H](C[C@H]2CC[C@H](C)[C@H]([C@@H](C)C(=O)O)O2)O[C@]2(O[C@](C)([C@H]3CC[C@@](C)([C@@H]4O[C@@H]([C@H]5O[C@@](O)(CO)[C@H](C)C[C@@H]5C)C[C@@H]4C)O3)C[C@H]2C)[C@@H]1C	-	1173P2	MIC	resazurin	0.625 µg/mL
CCCCCCCC(=O)OC(=O)CCCCCC	48 h	1173P2	MIC	resazurin	500 µg/mL
C[N+](C)(CCCCCC[N+](C)(C)CCCN1C(=O)c2cccc3cccc(c23)C1=O)CCCN1C(=O)c2cccc3cccc(c23)C1=O	-	Pasteur	MIC	-	12.5 µM

3 of the rows above, restated:

structure,setting,strain,measure,method,result
CC(C)CCOc1ccc(NC(=S)Nc2ccc(OCCC(C)C)cc2)cc1,-,Pasteur,MIC,resazurin,5–10 µg/mL
CC[C@@H](CO)NCCN[C@@H](CC)CO,24 h,1173P2,MIC100,broth dilution,0.75 µg/mL
CN(/N=C/c1ccccc1O)c1ccc2ccccc2n1,-,Pasteur,MIC,-,>100 µM